Experimental data taken from the supplement of paper PMC12637763.
The other results are listed elsewhere or left out. Env chains of viruses from a treatment-interruption trial, translated from the printed DNA. IC50 / IC80 of two broadly neutralizing antibodies; lower = more sensitive virus; >50 µg/ml means not reached and <0.001 µg/ml is below the lowest dose. No active / inactive call.

B1: HIV-1 Env, rebound clone, antibody arm (protein)
chain: MRVRGIPRNWQHLWTWWTLTLGLVIICSTSDNLWVTVYYGVPVWEDADTPLFCASDAKAYSTEKHNVWATHACVPTDPNPQELHLENVTEEFNMWKNNMVEQMHEDIISLWDEALKPCVKLTPLCVTLNCVSLNCSSVNKNVTNGNNSTECAEERENLRNCSFNVTTELKDKKEQTYALFYKLDVVQLNSGNNNNNTYRLINCNVSAIKQACPKVTFDPIPIHYCAPAGFAILKCNDKNFNGTGQCHNVSTVLCTHGIKPVVSTQLLLNGSLSEDEIVIKSENITDNAKSIIVQLNSTVSITCSRPNNNTRKSIRIGPGQVFYAQGDIIGDIRQAHCKVSRGNWTKVMQEVKGQLQKIFNKNITFNSSTGGDLEITTHSFNCRGEFFYCNTTGLFDDTLFNNNNTNDTSPITLPCKIKQIVRMWQRVGQAMYAPPIAGEITCISNITGLLLTRDGGNTTNASNETFRPGGGNMRDNWRSELYKYKVVKIKPLGVAPTKARRRVVQREKRAVGLGAVFLGFLGTAGSTMGAASITLTVQVRQLLSGIVQQQSNLLRAIEAQQHLLQLTVWGIKQLQARVLAVERYLKDQQLLGIWGCSGKLICTTNVPWNTSWSNKSYNEIWDNMTWMQWDKEVRNYSQQIYDLIQESQTQQEKNEQELLALDKWTSLWSWFDISSWLWYIKIFIMIVGGLIGLRIVFAVLSIVKRVRQGYSPLSFQTLTHHQREPDRPEGIEEGGGEQDKDRSIRLVSGFLPLAWDDVRSLCLFLYHRLRDFILIAARTLELLGRSCLQGLRLGREGLKYLWNLLVYWGQELKNSAINLFDTAAIVVANWTDRVIEIAQGIGRAILNIPRRIRQGLERALL
B2: HIV-1 Env, rebound clone, antibody arm (protein)
chain: MRVRGIPRNWQHLWTWWTLTLGLVIICSTSDNLWVTVYYGVPVWEDADTPLFCASDAKAYSTEKHNVWATHACVPTDPNPQELHLENVTEEFNMWKNNMVEQMHEDIISLWDEALKPCVKLTPLCVTLNCVSLNCSSVNKNVTNGNNSTECAEERENLRNCSFNVTTELKDKKEQTYALFYKLDVVQLNSGNNNNNTYRLINCNVSAIKQACPKVTFDPIPIHYCAPAGFAILKCNDKNFNGTGQCHNVSTVLCTHGIKPVVSTQLLLNGSLSEDEIVIKSENITDNAKSIIVQLNSTVSITCSRPNNNTRKSIRIGPGQVFYAQGDIIGDIRQAHCKVSRGNWTKVMQEVKGQLQKIFNKNITFNSSTGGDLEITTHSFNCRGEFFYCNTTGLFDDTLFNNNNTNDTSPITLPCKIKQIVRMWQRVGQAMYAPPIAGEITCISNITGLLLTRDGGNTTNASNETFRPGGGNMRDNWRSELYKYKVVKIKPLGVAPTKARRRVVQREKRAVGLGAVFLGFLGTAGSTMGAASITLTVQVRQLLSGIVQQQSNLLRAIEAQQHLLQLTVWGIKQLQARVLAVERYLKDQQLLGIWGCSGKLICTTNVPWNTSWSNKSYNEIWDNMTWMQWDKEVRNYSQQIYDLIQESQTQQEKNEQELLALDKWTSLWSWFDISSWLWYIKIFIMIVGGLIGLRIVFAVLSIVKRVRQGYSPLSFQTLTHHQREPDRPEGIEEGGGEQDKDRSIRLVSGFLPLAWDDVRSLCLFLYHRLRDFILIAARTLEFLGRSCLQGLRLGREGLKYLWNLLVYWGQELKNSAINLFDTAAIVVANWTDRVIEIAQGIGRAILNIPRRIRQGLERALL
B3: HIV-1 Env, rebound clone, antibody arm (protein)
chain: MRVRGIPRNWQHLWTWWTLTLGLVIICSTSDNLWVTVYYGVPVWEDADTPLFCASDAKAYSTEKHNVWATHACVPTDPNPQELHLENVTEEFNMWKNNMVEQMHEDIISLWDEALKPCVKLTPLCVTLNCVSLNCSSVNKNVTNGNNSTECAEERENLRNCSFNVTTELKDKKEQTYALFYKLDVVQLNSGNNNNNTYRLINCNVSAIKQACPKVTFDPIPIHYCAPAGFAILKCNDKNFNGTGQCHNVSTVLCTHGIKPVVSTQLLLNGSLSEDEIVIKSENITDNAKSIIVQLNSTVSITCSRPNNNTRKGIRIGPGQVFYAQGDIIGDIRQAHCKVSRGNWTKVMQEVKGQLQKIFNKNITFNSSTGGDLEITTHSFNCRGEFFYCNTTGLFDDTLFNNNNTNDTSPITLPCKIKQIVRMWQRVGQAMYAPPIAGEITCISNITGLLLTRDGGNTTNASNETFRPGGGNMRDNWRSELYKYKVVKIKPLGVAPTKARRRVVQREKRAVGLGAVFLGFLGTAGSTMGAASITLTVQVRQLLSGIVQQQSNLLRAIEAQQHLLQLTVWGIKQLQARVLAVERYLKDQQLLGIWGCSGKLICTTNVPWNTSWSNKSYNEIWDNMTWMQWDKEVRNYSQQIYDLIQESQTQQEKNEQELLALDKWTSLWSWFDISSWLWYIKIFIMIVGGLIGLRIVFAVLSIVKRVRQGYSPLSFQTLTHHQREPDRPEGIEEGGGEQDKDRSIRLVSGFLPLAWDDVRSLCLFLYHRLRDFILIAARTLELLGRSCLQGLRLGREGLKYLWNLLVYWGQELKNSAINLFDTAAIVVANWTDRVIEIAQGIGRAILNIPRRIRQGLERALL

What follows are binders tested against antibody 10-1074 (assay: neutralization IC50; higher = virus less sensitive to the antibody).
Experimental: (§1)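 Pseudovirus bearing the Env chain mixed with antibody, from 50 µg/ml in fivefold dilutions, on TZM-bl reporter cells, in duplicate.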

Binder	neutralization IC50
B1	> 50 mg/L
B2	> 50 mg/L
B3	> 50 mg/L

What follows are binders tested against antibody 3BNC117 in the same assay as above.
Experimental: as §1

Binder	neutralization IC50
B1	0.103 mg/L
B2	0.112 mg/L
B3	0.125 mg/L

Each binder was assayed against antibody 10-1074 (assay: neutralization IC80; higher = virus less sensitive to the antibody).
Experimental: as §1

Binder	neutralization IC80
B1	> 50 mg/L
B2	> 50 mg/L
B3	> 50 mg/L

These binders were tested against antibody 3BNC117 in the same assay as above.
Experimental: as §1

Binder	neutralization IC80
B1	0.653 mg/L
B2	0.807 mg/L
B3	0.886 mg/L
